The results in this text go back to article PMC7755911, “High affinity nanobodies block SARS-CoV-2 spike receptor binding domain interaction with human angiotensin converting enzyme” (2020).

Experiment [1] addresses SARS-CoV-2 RBD mutant W436R (SARS-CoV-2) (UniProt P0DTC2).
The target in experiment [2] is SARS-CoV-2 RBD mutant V367F (SARS-CoV-2) (UniProt P0DTC2).
Experiment [3] deals with SARS-CoV-2 RBD mutant N354D/D364Y (SARS-CoV-2) (UniProt P0DTC2). Kind of experiment: ELISA.

As to NIH-CoVnb-112, the 50% effective concentration (EC50) in experiment [1] and in experiment [2] was 1.11 nM in each case.

The substance NIH-CoVnb-112 (VHH) returned an EC50 in experiment [3] of 1.11 nM.
